Pooled drug test results. Numbers come from NIAID ChemDB, via PubChem.

Common to all: whole-cell or culture tests; organism: HIV-1; cell line: MT-4; method: p24; measure: EC95

a–b is a range or a potency band. Lines come from different laboratories, so protocols vary. ECn: concentration that inhibits the pathogen or its effect by n%.

{"structure": "O=C(N[C@H]1c2ccccc2OC[C@H]1O)[C@H](Cc1cccnc1)C[C@H](O)CN1CCN(Cc2ccn(-c3ccc(Cl)cc3)c2)C[C@H]1C(=O)NCC(F)(F)F", "mutations": "PR-L10I M46I I54V Q58E L63P I64V V77I V82F I84V L90M I93L", "strain": "K-60C Clinical isolate", "value": "0.015 µM"}
{"structure": "CCc1cc(NCc2nc3ccccc3o2)c(=O)[nH]c1C", "strain": "IIIB", "value": "0.2 µM"}
{"structure": "N#Cc1cccc(-n2ccc(CN3CCN(C[C@@H](O)C[C@@H](Cc4cccnc4)C(=O)N[C@H]4c5ccccc5OC[C@H]4O)[C@H](C(=O)NCC(F)(F)F)C3)c2)c1", "mutations": "PR-L10I N37S R41K M46I I54V I62V L63P A71V V77I V82A L90M I93L", "strain": "Q-60C Clinical isolate", "value": "0.031 µM"}
{"structure": "CC(C)(c1ncc(-c2ccc(Cl)cc2)o1)N1CCN(C[C@@H](O)C[C@@H](Cc2nnc(-c3ccccc3)o2)C(=O)N[C@H]2c3ccccc3OC[C@H]2O)[C@H](C(=O)NCC(F)(F)F)C1", "mutations": "PR-L10I M36I N37D M46I R57K L63P A71V G73S I84V L90M I93L", "strain": "V-18 Clinical isolate", "value": "0.125 µM"}
{"structure": "O=C(N[C@H]1c2ccccc2OC[C@H]1O)[C@H](Cc1cccnc1)C[C@H](O)CN1CCN(Cc2ccn(-c3ccc(F)c(F)c3F)c2)C[C@H]1C(=O)NCC(F)(F)F", "mutations": "PR-L10I M46I I54V Q58E L63P I64V V77I V82F I84V L90M I93L", "strain": "K-60C Clinical isolate", "value": "0.015 µM"}
{"structure": "CCc1cc(NCc2nc3c(Cl)ccc(Cl)c3o2)c(=O)[nH]c1C", "strain": "IIIB", "value": "0.025–0.05 µM"}
{"structure": "O=C(N[C@H]1c2ccccc2OC[C@H]1O)[C@H](Cc1cccnc1)C[C@H](O)CN1CCN(Cc2ccn(-c3cccc(Cl)c3)c2)C[C@H]1C(=O)NCC(F)(F)F", "strain": "NL4-3 WT", "value": "≤0.008 µM"}
{"structure": "O=c1[nH]cnc2c1ncn2[C@H]1CC[C@@H](CO)O1", "strain": "A17", "value": "6.25 µM"}
{"structure": "COc1cncc(-c2cnc(C(C)(C)N3CCN(C[C@@H](O)C[C@@H](Cc4nnc(C)o4)C(=O)N[C@H]4c5ccccc5OC[C@H]4O)[C@H](C(=O)NCC(F)(F)F)C3)o2)c1", "mutations": "PR-L10I N37S R41K M46I I54V I62V L63P A71V V77I V82A L90M I93L", "strain": "Q-60 Clinical isolate", "value": ">1 µM"}
{"structure": "Cc1cn([C@H]2C[C@H](N=[N+]=[N-])[C@@H](CO)O2)c(=O)[nH]c1=O", "strain": "rHXB2", "value": "0.025 µM"}
{"structure": "COc1cncc(-c2cnc(C(C)(C)N3CCN(C[C@@H](O)C[C@@H](Cc4nnc(-c5ccccc5)o4)C(=O)N[C@H]4c5ccccc5OC[C@H]4O)[C@H](C(=O)NCC(F)(F)F)C3)o2)c1", "mutations": "PR-L10I M36I N37D M46I R57K L63P A71V G73S I84V L90M I93L", "strain": "V-18 Clinical isolate", "value": ">1 µM"}
{"structure": "Cc1cccc(Cl)c1-n1nnnc1SCC(=O)Nc1ccccc1Cl", "value": "<10 µM"}
{"structure": "O=C1N(Cc2ccc(CO)cc2)[C@H](Cc2ccccc2)[C@H](O)[C@@H](O)[C@@H](Cc2ccccc2)N1Cc1ccc(CO)cc1", "mutations": "PR-M46I L63P", "strain": "NL4-3", "value": "0.4 µM"}
{"structure": "Cc1cc(C)c(-n2nnnc2SCC(=O)Nc2ccc(F)cc2Cl)c(C)c1", "value": "<10 µM"}
{"structure": "CC(C)(C)NC(=O)[C@@H]1C[C@@H]2CCCC[C@@H]2CN1C[C@@H](O)[C@H](Cc1ccccc1)NC(=O)[C@H](CC(N)=O)NC(=O)c1ccc2ccccc2n1", "mutations": "PR-L63P V82T I84V", "strain": "NL4-3", "value": "0.05 µM"}
{"structure": "O=C(N[C@H]1c2ccccc2OC[C@H]1O)[C@H](Cc1nnc(-c2ccccc2)o1)C[C@H](O)CN1CCN(Cc2ccc(-c3ccc(Cl)cc3)o2)C[C@H]1C(=O)NCC(F)(F)F", "strain": "NL4-3 WT", "value": "0.0156 µM"}
{"structure": "CCc1cc(NCc2nc3c(C)ccc(C)c3o2)c(=O)[nH]c1C", "strain": "MN", "value": "0.05 µM"}
{"structure": "O=C(N[C@H]1c2ccccc2OC[C@H]1O)[C@H](Cc1cccnc1)C[C@H](O)CN1CCN(Cc2ccn(-c3ccccc3)c2)C[C@H]1C(=O)NCC(F)(F)F", "mutations": "PR-L10I N37S R41K M46I I54V I62V L63P A71V V77I V82A L90M I93L", "strain": "Q-60C Clinical isolate", "value": "≤0.008 µM"}
{"structure": "CC(C)(c1ncc(-c2ccc(F)cc2)o1)N1CCN(C[C@@H](O)C[C@@H](Cc2nnc(-c3ccccc3)o2)C(=O)N[C@H]2c3ccccc3OC[C@H]2O)[C@H](C(=O)NCC(F)(F)F)C1", "strain": "NL4-3 WT", "value": "≤0.008 µM"}
{"structure": "Cc1cc(C)c(-n2nnnc2SCC(=O)Nc2cccc(F)c2C#N)c(C)c1", "value": "<10 µM"}
{"structure": "CC(C)(c1ncc(-c2ccc(F)cc2)o1)N1CCN(C[C@@H](O)C[C@@H](Cc2nnco2)C(=O)N[C@H]2c3ccccc3OC[C@H]2O)[C@H](C(=O)NCC(F)(F)F)C1", "mutations": "PR-L10I M36I N37D M46I R57K L63P A71V G73S I84V L90M I93L", "strain": "V-18 Clinical isolate", "value": "0.125 µM"}
{"structure": "O=C(N[C@H]1c2ccccc2OC[C@H]1O)[C@H](Cc1cccnc1)C[C@H](O)CN1CCN(Cc2ccn(-c3ccc(Cl)c(Cl)c3)c2)C[C@H]1C(=O)NCC(F)(F)F", "mutations": "PR-L10I N37S R41K M46I I54V I62V L63P A71V V77I V82A L90M I93L", "strain": "Q-60C Clinical isolate", "value": "≤0.008 µM"}
{"structure": "Cc1cc(C)c(-n2nnnc2OCC(=O)Nc2ccccc2Cl)c(C)c1", "value": "<10 µM"}
{"structure": "CCCc1nnc(C[C@H](C[C@H](O)CN2CCN(Cc3ccc(-c4ccc(Cl)cc4)o3)C[C@H]2C(=O)NCC(F)(F)F)C(=O)N[C@H]2c3ccccc3OC[C@H]2O)o1", "mutations": "PR-L10I M46I I54V Q58E L63P I64V V77I V82F I84V L90M I93L", "strain": "K-60 Clinical isolate", "value": "≤0.008 µM"}
{"structure": "Cc1cccc(-n2ccc(CN3CCN(C[C@@H](O)C[C@@H](Cc4cccnc4)C(=O)N[C@H]4c5ccccc5OC[C@H]4O)[C@H](C(=O)NCC(F)(F)F)C3)c2)c1", "mutations": "PR-L10I M46I I54V Q58E L63P I64V V77I V82F I84V L90M I93L", "strain": "K-60C Clinical isolate", "value": "0.031 µM"}

For reference, 2 entries again:

structure,mutations,strain,value
COc1cncc(-c2cnc(C(C)(C)N3CCN(C[C@@H](O)C[C@@H](Cc4nnc(C)o4)C(=O)N[C@H]4c5ccccc5OC[C@H]4O)[C@H](C(=O)NCC(F)(F)F)C3)o2)c1,PR-L10I N37S R41K M46I I54V I62V L63P A71V V77I V82A L90M I93L,Q-60 Clinical isolate,>1 µM
O=C(N[C@H]1c2ccccc2OC[C@H]1O)[C@H](Cc1cccnc1)C[C@H](O)CN1CCN(Cc2ccn(-c3ccc(Cl)cc3)c2)C[C@H]1C(=O)NCC(F)(F)F,PR-L10I M46I I54V Q58E L63P I64V V77I V82F I84V L90M I93L,K-60C Clinical isolate,0.015 µM